A word on the Ki: it is the dissociation constant of the complex between target and ligand, obtained from inhibition or displacement.

This assay concerns the target N-type calcium channels in cell membranes isolated from rat brain (Rattus norvegicus, UniProt Q02294). The format is binding. To be noted: read-out: Affinity constant (Ki); pH 7.4.

On to ω-conotoxin GVIA, for which the Ki amounted to 0.00829 nM. In the case of ω-conotoxin MVIIC, the Ki was 3.97 nM.

The record behind these values is patent US7927820B2 (priority 2004, dated 2011).
